Measured values as given in patent publication US9499590B2, “Antibodies against and methods for producing vaccines for respiratory syncytial virus” (MEDIMMUNE, LLC, priority 2009, dated 2016).

System: MEDI-524 Mab
Experiment: Isothermal titration calorimetry (ITC) of F peptides with MEDI-524 Mab
Assay type: binding
Details: 25 mM His; for ΔHbinding: Mab, 18° C., pH 6.07
Text: Isothermal Titration calorimetry assays (ITC) have been described (see, for example, Heerklotz H et al., Biophysical Journal, May 1999). Molecular interactions are defined by stoichiometry and a few thermodynamic parameters. All binding reactions are associated with the absorption or generation of heat. Therefore calorimetry is emerging as a premier tool for the characterisation of interactions of biological macromolecules. ITC is the only method that measures equilibrium constants, enthalpy and entropy in one single experiment. If the experiment is performed at different temperatures the important parameter, the heat capacity change, can be determined. ITC has become a standard method for investigating the binding of ligands to receptor molecules. Accordingly, ligands are mixed with receptors, and the subsequent heats of incorporation (or binding) are measured.
To evaluate the binding properties of the wild-type peptide (SEQ ID NO.28) to Numax™/MEDI-524 by using the ITC technique. The MEDI-524 Mab was titrated with SEQ ID NO.28 in the basis buffer 25 mM His, pH 6 at 10° C. SEQ ID NO.28: (MW=2732.14, no W, Y, or C). A working solution of 55 μM was prepared by diluting 30 μL of a 5 mg/mL peptide solution with 970 μL, of 25 mM His, pH 6 buffer to be used for the ITC titrations. A 1.15 μM (0.1706 mg/ml) working solution of MEDI-524 was used for the experiments (MW 148400, A280=1.47).
To obtain binding constants for MEDI-524 Mab and MEDI-524 Fab fragments with F peptides constructed from F protein sequences, ITC was performed.
For this set of experiments, […] (1.16 μM-148.4 KDa) of MEDI-524 Mab and 0.088 mg/mL (1.88 μM-46.3 KDa) of MEDI-524 Fab, both in 25 mM His, pH 6.07 were used. On the other hand, 250 μl of lmg/mL of the different peptides dissolved in H2O, were provided by ABC. The peptides were then diluted into the appropriate volume of buffer to give a final concentration of 50 μM. The ITC experiments were run at 18° C. with the macromolecule (Mab or Fab) in the cell, by doing ˜26 injections of 10 μL of peptides, spaced 360 sec with constant stirring. The data fitting was accomplished by subtracting the average value of the few last injections as the buffer and unspecific heat of dilution contributions. […] A note apart is the fact that the observed binding capacity (N) increases with the length of the peptide, indicating possibly an extra conformational factor in the binding event. The entropic contribution: For the peptides SEQ ID NOs.24 and 26, the entropic factor seems to be similar; the extra amino acids at the end of the N-terminal seem not to affect greatly the binding parameters. On the other hand, the elongation at the C-terminal seems to decrease slightly the binding enthalpy, the binding constant, as well as the entropic factor. The binding capacity seems to be increased in the cases where the 30-mer peptides were used (SEQ ID Nos. 25 and 26), when compare to the SEQ ID NO.24 peptide, possibly due to the longer extent of the whole peptides. The binding constant seems to be smaller (weaker) for both 30-mer peptides respect to the 26-mer.

| Substance | ΔHbinding | binding enthalpy (pH 6, 10° C.) [kcal/M] | binding site detected (pH 6, 10° C.) | stoichiometry (pH 6, 10° C.) |
| --- | --- | --- | --- | --- |
| NSELLSLIHDMPITNDQKKLMSNNVQIVRQ [SEQ ID NO: 25] | -10.0 kcal/mol |  |  |  |
| NSELLSLINDMPITNDQKKLMSNN-NH2 (NSELLSLINDMPITNDQKKLMSNNNH; C-terminal amide) [SEQ ID NO.28] |  | 4.8 ± 0.1 | 1 | 4 |
| NSELLSLINDMPITNDQKKLMSNN(X-orn)C [SEQ ID NO: 24] | -12.5 kcal/mol |  |  |  |
| STYMLTNSELLSLIHDMPITNDQKKLMSNN [SEQ ID NO: 26] | −12.6* Kcal/Mol |  |  |  |

Marks after values point to notes of the source that are not given here.
